The values that follow come from patent US8937167B2 (Washington University, priority 2009, dated 2015).

By UniProt entry, the sequences of proteins in these tests, tags left out. Residues count along the entry.
UniProt Q1R2J4, 20-300 limits assumed: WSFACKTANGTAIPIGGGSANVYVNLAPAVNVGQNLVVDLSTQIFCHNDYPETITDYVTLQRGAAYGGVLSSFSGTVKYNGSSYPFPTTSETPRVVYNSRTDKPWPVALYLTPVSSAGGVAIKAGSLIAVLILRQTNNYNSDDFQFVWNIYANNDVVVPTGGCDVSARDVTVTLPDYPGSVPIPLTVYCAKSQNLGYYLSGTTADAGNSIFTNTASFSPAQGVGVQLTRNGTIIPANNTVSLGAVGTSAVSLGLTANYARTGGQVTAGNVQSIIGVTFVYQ

The target of the test is FimH (Escherichia coli, UniProt Q1R2J4).
Where [1] appears, read: read-out: HA 50% titer, Table 13, Example 6 numbering.

Read-outs that look alike come from different tables or passages of the source.
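Note: hemagglutination inhibition of guinea pig erythrocytes agglutinated by type 1 piliated uropathogenic E. coli via FimH mannose binding, quantified through serial dilutions of compound.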

The term EC90 denotes the concentration at which the effect reaches the 90% level. Take `COC(=O)c1ccc(-c2ccc(O[C@H]3O[C@H](CO)[C@@H](O)[C@H](O)[C@@H]3O)cc2)cc1`: the EC90 (read-out: HA 50% titer EC90, Table 11, Example 6 numbering) is 4 µM. Further, the EC50 under setting [1] amounted to 4 µM.

In the case of `COC(=O)c1cc(O[C@H]2O[C@H](CO)[C@@H](O)[C@H](O)[C@@H]2O)cc(C(=O)OC)c1`, the EC50 turned out to be 2 µM (read-out: HA 50% Titer, Table 10, Example 6 numbering) and 2 µM under setting [1]. Further, where the note is “relative to 3j”, the “fold enhancement in HA potency” value is reported as 3 fold.
